Experimental data reported in PMC5017722.
Several values for one entry are separate records, joined by “and”; a condition that tells them apart may be missing. Identical values can stand only once.

Molecular target: monoclonal antibody 101F (mouse)
Assay: SPR

“the soluble hMPV F proteins (fully cleaved postfusion F of NL/1/00, A1, and NL/1/99, B1)” was tested, and the Kd was 15 to 40 nM, the fold faster koff than for hRSV F was 3 fold and the fold slower kon than for hRSV F was 2 fold and 5 fold.
